A mixed list of measured activities; the numbers were collected in NIAID ChemDB.

Common to all: growth or infection tests; species: HIV-1; method: p24; measure: EC50

Blank or dashed fields: not listed here. Lines come from different laboratories, so protocols vary. ECn: concentration that inhibits the pathogen or its effect by n%.

| compound | conditions | cells | changes | strain or isolate | result |
|---|---|---|---|---|---|
| CCC[C@@]1(CCc2ccccc2)CC(O)=C([C@H](CC)c2cccc(NS(=O)(=O)c3ccc(C(F)(F)F)cn3)c2)C(=O)O1 | - | PBMC | - | 14aPre WT | 0.06 µM |
| CC(C)CN(C[C@@H](O)[C@H](Cc1ccccc1)NC(=O)[C@H](CC(N)=O)NC(=O)c1ccc2ccccc2n1)C(=O)NC(C)(C)C | - | MT-4 | PR-M46I L63P V82T I84V | NL4-3 | <1.5 µM |
| Cc1cc(C)c(-n2nnnc2SCC(=O)Nc2ccc(C(N)=O)cc2C)c(C)c1 | 10% FBS | MT-4 | - | - | <0.031 µM |
| CC(C)(C)OC(=O)N[C@@H](Cc1ccccc1)[C@@H](O)C[C@@H](Cc1ccc(OCCN2CCS(=O)(=O)CC2)cc1)C(=O)N[C@H]1c2ccccc2C[C@H]1O | - | H9 | - | IIIB | <0.1 µM |
| NC(=O)NO | - | PBMC | - | NL4-3 | ~100 µM |
| Cc1cn([C@H]2C[C@H](N=[N+]=[N-])[C@@H](CO)O2)c(=O)[nH]c1=O | - | C8166 | - | RF | 0.04 µM |
| O=C(O[C@@H]1Cc2c(O)cc(O)c(Cc3c(O)cc(O)c4c3O[C@H](c3cc(O)c(O)c(O)c3)[C@H](OC(=O)c3cc(O)c(O)c(O)c3)C4)c2O[C@@H]1c1cc(O)c(O)c(O)c1)c1cc(O)c(O)c(O)c1 | - | H9 | - | IIIB | >45 µg/mL |
| CC(C)CN(C[C@@H](O)[C@H](Cc1ccccc1)NC(=O)O[C@H]1CCOC1)S(=O)(=O)c1ccc(N)cc1 | - | MT-4 | - | NL4-3 | 0.023 µM |
| CCN(C)C(C)(C)c1nc(C(=O)NCc2ccc(F)cc2)c(O)c(=O)[nH]1 | 50% human serum | MT-4 | - | IIIB | <0.5 µM |
| CC(C)(C)OC(=O)N[C@@H](Cc1ccccc1)[C@@H](O)C[C@@H](Cc1ccc(OCCO)cc1)C(=O)N[C@H]1c2ccccc2C[C@H]1O | - | H9 | - | IIIB | <0.05 µM |
| Cc1cc(C)c(-n2nnnc2SCC(=O)Nc2ccc(Cl)cc2[N+](=O)[O-])c(C)c1 | 10% FBS | MT-4 | - | - | <0.031 µM |
| CCn1nc(Cc2ccccc2)cc1C1CCN(C[C@H]2CN([C@H](CC(C)C)C(=O)O)C[C@@H]2c2ccccc2)CC1 | - | PBMC | - | BaL | <0.125 µM |
| Cc1cc(C)c(-n2nnnc2SCC(=O)Nc2ccc(S(N)(=O)=O)cc2C)c(C)c1 | 10% FBS | MT-4 | - | - | <0.05 µM |
| CN(C)C1(c2nc(C(=O)NCc3ccc(F)cc3)c(O)c(=O)[nH]2)CCCC1 | 50% human serum | MT-4 | - | IIIB | <1 µM |
| Cc1ccc(-n2nnnc2SCC(=O)Nc2ccccc2[N+](=O)[O-])c(Br)c1 | 10% FBS | MT-4 | - | - | <0.008 µM |
| Cc1cn([C@H]2C[C@H](N=[N+]=[N-])[C@@H](CO)O2)c(=O)[nH]c1=O | - | CD4+HELA + HeLa | RT-P157S | - | 0.06 µM |
| Cc1c(Cl)cccc1-n1nnnc1SCC(=O)Nc1ccccc1[N+](=O)[O-] | 10% FBS | MT-4 | - | - | <0.008 µM |
| Cc1cccc(C)c1OCC(=O)N[C@@H](Cc1ccccc1)[C@@H](O)C[C@H](Cc1ccccc1)NC(=O)[C@H](C(C)C)N1CCCNC1=O | - | PBMC | - | 14aPre WT | 0.002 µM |
| [NH4+] | - | PBL | - | GUN1 | >100 µg/mL |
| O=c1[nH]cnc2c1ncn2[C@H]1CC[C@@H](CO)O1 | - | PBL | - | IIIB | 0.58 µM |
| O=c1[nH]cnc2c1ncn2[C@H]1CC[C@@H](CO)O1 | - | C8166 | - | RF | 0.9 µM |
| O=C(O[C@@H]1Cc2c(O)cc(O)cc2O[C@@H]1c1cc(O)c(O)cc1-c1c([C@H]2Oc3cc(O)cc(O)c3C[C@H]2OC(=O)c2cc(O)c(O)c(O)c2)cc(O)c(O)c1O)c1cc(O)c(O)c(O)c1 | - | H9 | - | IIIB | >50 µg/mL |
| CNC(C)(C)c1nc(C(=O)NCc2ccc(F)cc2)c(O)c(=O)[nH]1 | 50% human serum | MT-4 | - | IIIB | <1 µM |
| O=C(O[C@@H]1Cc2c(O)cc(O)c([C@@H]3c4c(O)cc(O)cc4O[C@H](c4cc(O)c(O)c(O)c4)[C@H]3O)c2O[C@@H]1c1cc(O)c(O)c(O)c1)c1cc(O)c(O)c(O)c1 | - | H9 | - | IIIB | >9 µg/mL |
| CC(C)(C)OC(=O)N[C@@H](Cc1ccccc1)[C@@H](O)C[C@@H](Cc1ccc(OCCN2CCOCC2)cc1)C(=O)N[C@H]1c2ccccc2C[C@H]1O | - | H9 | - | IIIB | <0.006 µM |
| CC(C)(C)NC(=O)[C@@H]1C[C@@H]2CCCC[C@@H]2CN1C[C@@H](O)[C@H](Cc1ccccc1)NC(=O)[C@H](CC(N)=O)NC(=O)c1ccc2ccccc2n1 | - | MT-4 | PR-L10R L63P | NL4-3 | <0.025 µM |
| CC(C)Nc1cccnc1N1CCN(C(=O)c2cc3cc(NS(C)(=O)=O)ccc3[nH]2)CC1 | - | Macrophage + Monocytes/macrophages | RT-V106A | BaL | 3.2 µM |
| CN1CCOCC1c1nc(C(=O)NCc2ccc(F)cc2)c(O)c(=O)[nH]1 | 50% human serum | MT-4 | - | IIIB | <0.23 µM |
| O=C(O[C@@H]1Cc2c(O)cc(O)cc2O[C@@H]1c1ccc(O)cc1)c1cc(O)c(O)c(O)c1 | - | H9 | - | IIIB | >50 µg/mL |
| Cn1cc(C(=O)O)c(=O)c2cc(F)c(N3CC=C(c4ccccc4)CC3)c(C(F)(F)F)c21 | - | MOLT-4/U0(HIV-1(IIIB)) + MOLT-4 | - | IIIB | 0.05 µM |
| CN1C2CCC1(c1nc(C(=O)NCc3ccc(F)cc3)c(O)c(=O)[nH]1)CC2 | 10% FBS | MT-4 | - | IIIB | <0.12 µM |
| CC(C)(C)C(=O)c1sc(C(=O)NCc2ccccc2)c(O)c1O | - | PBMC | - | TH92001 X4 CLADE E | 0.2 µM |
| Oc1cc(O)c2c(c1)O[C@H](c1cc(O)c(O)c(O)c1)[C@H](O)C2 | - | H9 | - | IIIB | >1.8 µg/mL |
| Cc1cccc(C)c1OCC(=O)N[C@@H](Cc1ccccc1)[C@@H](O)C[C@H](Cc1ccccc1)NC(=O)[C@H](C(C)C)N1CCCNC1=O | - | MT-4 | - | NL4-3 | 0.035 µM |
| CC(C)(C)OC(=O)N[C@@H](Cc1ccccc1)[C@@H](O)C[C@@H](Cc1ccc(OCc2ccccc2)cc1)C(=O)N[C@H]1c2ccccc2C[C@H]1O | - | H9 | - | IIIB | <0.05 µM |
| CN(C)C1(c2nc(C(=O)NCc3ccc(F)cc3)c(O)c(=O)[nH]2)CCCCC1 | 10% FBS | MT-4 | - | IIIB | <0.12 µM |
| CCNc1cccnc1N1CCN(C(=O)c2cc3cc(OC)ccc3[nH]2)CC1 | - | PBMC | RT-V106A | BaL | 15.3 µM |
| CN1CCN(C)C(C)(c2nc(C(=O)NCc3ccc(F)cc3)c(O)c(=O)[nH]2)C1 | 50% human serum | MT-4 | - | IIIB | <0.25 µM |
| O=C(CSc1nnnn1-c1c(Cl)cccc1Cl)Nc1ccccc1[N+](=O)[O-] | 50% human serum | MT-4 | - | - | <0.062 µM |

5 of the rows above, restated:

compound	conditions	cells	changes	strain or isolate	result
[NH4+]	-	PBL	-	GUN1	>100 µg/mL
O=C(O[C@@H]1Cc2c(O)cc(O)c([C@@H]3c4c(O)cc(O)cc4O[C@H](c4cc(O)c(O)c(O)c4)[C@H]3O)c2O[C@@H]1c1cc(O)c(O)c(O)c1)c1cc(O)c(O)c(O)c1	-	H9	-	IIIB	>9 µg/mL
CCNc1cccnc1N1CCN(C(=O)c2cc3cc(OC)ccc3[nH]2)CC1	-	PBMC	RT-V106A	BaL	15.3 µM
O=c1[nH]cnc2c1ncn2[C@H]1CC[C@@H](CO)O1	-	PBL	-	IIIB	0.58 µM
Cc1cn([C@H]2C[C@H](N=[N+]=[N-])[C@@H](CO)O2)c(=O)[nH]c1=O	-	CD4+HELA + HeLa	RT-P157S	-	0.06 µM